Protein sequences can lack the tags named with them.
System: T1, ComK
T1 sequence (looked up): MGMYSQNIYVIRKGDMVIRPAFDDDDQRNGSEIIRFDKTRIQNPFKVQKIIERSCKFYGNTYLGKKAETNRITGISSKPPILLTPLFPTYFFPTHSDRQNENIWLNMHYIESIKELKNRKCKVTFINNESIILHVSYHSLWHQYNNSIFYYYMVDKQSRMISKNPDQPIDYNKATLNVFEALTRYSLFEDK
Experiment: EMSA
Conditions: 0-400 nM ComK, 50 mM Tris-HCl pH 7.5, 50 mM KCl, 0.5 mM DTT, 5 mM MgCl2, 0.1 mg/ml BSA, 0.1 nM DNA, 15 min at 37 C, 0.8% agarose gel in TAE, no competitor DNA, recombinant protein, residues 1-191, label: 32P (alpha-dATP, Klenow fill-in), probe letters rebuilt from the primers and the genome

Sequence	binding result	binding result (complex retained in well)
AATTCCAAGTTTTAATAACCATAAATAACATGATATAAGCAAAGATTAATATAACTAAGCCAATACCATTTGCAAAGCTAAATGTATCTTTATTAATAAATGCCTCTACACCAGCCAATACATAAATTAAAACGTGTGTTATTGCTAAAAACTTCGAATTTTTAACGCCATATTCAACTGCACCGTCTGCTTTTAATTGTTTTGAGTGATTAATAGATATCTTTAAGCTGACAAGTCTGATACAGAAAAAGATAAGTAATATAGATAGAATCATGATGTCCTCCGTCATTATGTCATATGTATAAGCGTTGATTTTGACAACATAAAGTATTTTATAGATAAAGCTTGTCAAATACTATTAACTATTTATTAATTTTAGTACATAAATATGTTTCTAAGTATGTGTTTATGTTCAGTATTTTGGATAATTTAATAATTTTAAGGATATTAAGCGCTTACACCGACGTGATATATTTGGCTTAACGAAAATGATTGAGGTGACAGAGAGGAATT (double strand) [uhpT promoter]	binds	–
AATTCCATTTGTTTTTATTTGTTAGCGAAGGTTTACTTAAAGGTTATTTATACCTTGAAATTGATTCACAACAGTCAATCGCCGAGATTAAATACTTCAGTTCTCATGTAGATTACCGTTTGAAAGGTATCGCTTTCGAGTTGCTTGCGTATGCATTGCAATATGCTTTTGATAATTTTGATATTAGAAAAGTTTATTTTAAAATTCGTAATAAAAATAATAAACTCATCGAACGATTTAATGGTCTAGGTTTCCATATCAACTATGAGTACATTAAATTCAAATTCGAATCACGTAACGTAAAAGATCAAACAATCCCTGAATAAAACACCAAGCAAATACCCTACAGTACATCATTAGCATGTATTGTGGGTTTTTCTACTTTTTGTAAATATTGAAAATTATAAGTAGTTGTTTTTTACTATTAGGGCAGAATGCTTTACAATAACATGCAAGTGTCAATTAAGGGGAGCACTTGCATAAATAGTATAGGAGAGTGAGTAGTCTGGAATT (double strand) [glcU promoter]	binds	–
AATTCCTATTCTTGTCAACTGATTGATTACCTGCGACTGTTGTTACAGCTAATATCTCTAGTGGACTGTCAATTGCCCCCGCTAAAATTAATGCTATTGCATCATCGTGTCCTGGATCACAATCCATAATAATCTTTCTTTTCATTTATATATCCACCTTTCTTAAGTTGTTATCGATAGCTTATGTATATTTATTTATGTGGTGAATCATGTTTATTTTGAAAAATAGTTTTAACTTTCTCATATTTTTGGATACAAACACTATTTATCTATTTTATGGCTTATAAATTTATCCGATATGCCTTATCAACCTACCTCGCTAAAAATAGGATGTCTACATATCTATACCGACTTTTGTCAACTCATTTTCACAACAATATAAACAGCAATTTATATGATTGTTACATGATTCAAACAATTTTTATGAAAAATATTTTCATACACAGAATATATATTGATATTAAATTTCTCAAAAGCTATATTGAGAATAATTAGGAGGGATGTTGAGGAATT (double strand) [glcC promoter]	binds	–
AATTGAAAAAACACCTCCTACATATAATCACGTAGGAGGTGTTTTTATTACTTCAATTTAACCGTGTAAAAATGGATTTAATTGTTCATCATCAACCGTCGTATATGGACCATGTCCAGGGAATAAAGGTAAATCGCCTTCTAATTCAAATATTTTATCTTGAATAGAATCAACTAGCGTTTCATAATCACCTTTATATAAATCTGTACGTCCGATTCCATTATTAAATAATGTATCTCCAACAACTGCGAATTCATCGAACACATATGTTAAACTTCCTGGTGAATGTCCAGGTGTGTGTAACACATTAAACTTAAATCCTTCTATTTCTGTGCTACCTTCGTTTAACTTTTCAGGAGTTACCTTACTTGTAATAATTGGTAATCCATATTGCTTAAATTTATCTGCCCCATTTTTAACGGGATCTTTTAGAAAATCAAACTCTGCTTCATGCATATAAACCGGGACATCGAATCGATCAACTATATCATCGACTGCTCCGATATCAATT (double strand) [comG (comGA) promoter]	–	binds
